{"source": "PubChem BioAssay AID1259414 (Drosophila RNAi Screening Center, 2018)", "aim": "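Genome-wide screen for host control of endosymbiont load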 (primary screen)", "system": "Drosophila JW18 cells infected with Wolbachia", "reagent": "long dsRNA against Drosophila genes, 0.25 µg dsRNA per well of a 384-well plate", "time to read-out": "5 days", "treatment": "cells persistently infected with Wolbachia before knock-down; no added drug", "measured": "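Automated imaging of bacterial rRNA staining divided by host cell count, reported as plate-normalised robust z-score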", "scale": "Wolbachia per cell robust z: higher = more Wolbachia per host cell than the plate typical", "active means": "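Active if absolute robust z reaches 1.5 in two or more of three replicates, leaving out multi- or no-target dsRNAs, genes unexpressed in JW18 and A1 wells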", "note": "The screen tested about 24,000 reagents; shown is a random part of those with a known target gene and a result. In the full data, about 1,210 (5%) got an active call. 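Inactive calls also include excluded dsRNAs with several or no targets, genes unexpressed in JW18, and well A1, regardless of score.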 Reagents against one gene are numbered here. Names joined by + are all predicted targets of the reagent. Reagent sequences are not shown."}
{"target": "Gr59f", "reagent no.": 1, "Wolbachia per cell robust z, rep 1": -0.549, "Wolbachia per cell robust z, rep 2": 0.146, "Wolbachia per cell robust z, rep 3": 0.144, "call": "inactive"}
{"target": "Gr59f", "reagent no.": 2, "Wolbachia per cell robust z, rep 1": -0.329, "Wolbachia per cell robust z, rep 2": 0.0206, "Wolbachia per cell robust z, rep 3": 2.46, "call": "inactive"}
{"target": "CG34268 + CG34267", "reagent no.": 1, "Wolbachia per cell robust z, rep 1": 0.548, "Wolbachia per cell robust z, rep 2": 0.148, "Wolbachia per cell robust z, rep 3": 0.407, "call": "inactive"}
{"target": "CG32712", "reagent no.": 1, "Wolbachia per cell robust z, rep 1": 2.8, "Wolbachia per cell robust z, rep 2": -1.01, "Wolbachia per cell robust z, rep 3": -0.964, "call": "inactive"}
{"target": "CG11000", "reagent no.": 1, "Wolbachia per cell robust z, rep 1": -1.35, "Wolbachia per cell robust z, rep 2": -3.7, "Wolbachia per cell robust z, rep 3": -1.57, "call": "inactive"}
{"target": "CG11000", "reagent no.": 2, "Wolbachia per cell robust z, rep 1": -0.967, "Wolbachia per cell robust z, rep 2": -0.626, "Wolbachia per cell robust z, rep 3": -0.195, "call": "inactive"}
{"target": "CG11000", "reagent no.": 3, "Wolbachia per cell robust z, rep 1": -1.74, "Wolbachia per cell robust z, rep 2": -1.29, "Wolbachia per cell robust z, rep 3": -0.0156, "call": "inactive"}
{"target": "CG32845", "reagent no.": 1, "Wolbachia per cell robust z, rep 1": 0.241, "Wolbachia per cell robust z, rep 2": 2.31, "Wolbachia per cell robust z, rep 3": 0.45, "call": "inactive"}
{"target": "CG32845", "reagent no.": 2, "Wolbachia per cell robust z, rep 1": -3.32, "Wolbachia per cell robust z, rep 2": 0.116, "Wolbachia per cell robust z, rep 3": -0.943, "call": "inactive"}
{"target": "casp", "reagent no.": 1, "Wolbachia per cell robust z, rep 1": 0.593, "Wolbachia per cell robust z, rep 2": -0.092, "Wolbachia per cell robust z, rep 3": 0.00177, "call": "inactive"}
{"target": "Hr38", "reagent no.": 1, "Wolbachia per cell robust z, rep 1": 0.363, "Wolbachia per cell robust z, rep 2": 0.989, "Wolbachia per cell robust z, rep 3": 0.557, "call": "inactive"}
{"target": "Hr38", "reagent no.": 2, "Wolbachia per cell robust z, rep 1": 0.68, "Wolbachia per cell robust z, rep 2": 0.213, "Wolbachia per cell robust z, rep 3": 1.52, "call": "inactive"}
{"target": "Prp31", "reagent no.": 1, "Wolbachia per cell robust z, rep 1": 0.846, "Wolbachia per cell robust z, rep 2": -4.57, "Wolbachia per cell robust z, rep 3": -0.13, "call": "inactive"}
{"target": "CG17601", "reagent no.": 1, "Wolbachia per cell robust z, rep 1": -0.104, "Wolbachia per cell robust z, rep 2": -1.25, "Wolbachia per cell robust z, rep 3": -0.729, "call": "inactive"}
{"target": "TotM", "reagent no.": 1, "Wolbachia per cell robust z, rep 1": 0.498, "Wolbachia per cell robust z, rep 2": -0.142, "Wolbachia per cell robust z, rep 3": 0.897, "call": "inactive"}
{"target": "ATbp", "reagent no.": 1, "Wolbachia per cell robust z, rep 1": 0.51, "Wolbachia per cell robust z, rep 2": 0.452, "Wolbachia per cell robust z, rep 3": 0.588, "call": "inactive"}
{"target": "ATbp", "reagent no.": 2, "Wolbachia per cell robust z, rep 1": 0.934, "Wolbachia per cell robust z, rep 2": 0.897, "Wolbachia per cell robust z, rep 3": 0.753, "call": "inactive"}
{"target": "ast", "reagent no.": 1, "Wolbachia per cell robust z, rep 1": -2.81, "Wolbachia per cell robust z, rep 2": 0.0592, "Wolbachia per cell robust z, rep 3": 0.175, "call": "inactive"}
{"target": "ast", "reagent no.": 2, "Wolbachia per cell robust z, rep 1": -1.9, "Wolbachia per cell robust z, rep 2": -1, "Wolbachia per cell robust z, rep 3": -0.901, "call": "inactive"}
{"target": "IPIP", "reagent no.": 1, "Wolbachia per cell robust z, rep 1": 0.472, "Wolbachia per cell robust z, rep 2": 0.463, "Wolbachia per cell robust z, rep 3": -0.516, "call": "inactive"}
{"target": "IPIP", "reagent no.": 2, "Wolbachia per cell robust z, rep 1": 0.65, "Wolbachia per cell robust z, rep 2": -0.273, "Wolbachia per cell robust z, rep 3": 1.44, "call": "inactive"}
{"target": "CG14969", "reagent no.": 1, "Wolbachia per cell robust z, rep 1": -0.395, "Wolbachia per cell robust z, rep 2": 0.0942, "Wolbachia per cell robust z, rep 3": 0.228, "call": "inactive"}
{"target": "CG14106", "reagent no.": 1, "Wolbachia per cell robust z, rep 1": 0.211, "Wolbachia per cell robust z, rep 2": 1.28, "Wolbachia per cell robust z, rep 3": 0.417, "call": "inactive"}
{"target": "CG43336", "reagent no.": 1, "Wolbachia per cell robust z, rep 1": -3.26, "Wolbachia per cell robust z, rep 2": -2.54, "Wolbachia per cell robust z, rep 3": -0.723, "call": "inactive"}
